Literature values in patent US20240377385A1, “METHODS AND COMPOSITIONS OF MATTER FOR TREATING CANCER AND PREDICTING RESPONSE TO THERAPY” (ICCA INC., priority 2023, published 2024).

Tested on: CD163-positive M2 macrophages
Settings: tumor cells loaded with low concentrations of cetuximab; cited from earlier work

cetuximab
IL-10 and VEGF production: further augmentation
